Taken from: PubChem BioAssay AID504761 (Drosophila RNAi Screening Center, 2011)

- Purpose: 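Fly genes whose silencing reduces dengue virus type 2 infection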 (primary screen)
- Cell system: D.Mel-2 cells from Drosophila
- Reagents: long dsRNA against Drosophila genes
- Treatment: infection with dengue virus type 2; dose and infection time not stated
- Detection: 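Per well on two replicate plates, imaging gave the percent of cells positive for viral envelope protein, ranked by infection, and a nuclear count of cells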
- Reading the numbers: infection score: higher = more virus-infected cells; cell count: higher = more cells in the well
- Rule for the call: 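Low infection ranks in the two replicates (chance level up to 0.065) followed by a retest with a 1.5-fold or larger significant decrease, p below 0.05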
- Calls: active = confirmed: knock-down lowers infection; inactive = not picked or not confirmed
In all, the deposit lists about 22,000 reagents; below is an unselected part of those with a known target gene and a result. Over the whole deposit, 116 (0.52%) were called active. 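Calls depend on retest data that are not deposited; infection was ranked per plate without normalising between plates; the unit of the infection score is not given.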 The raw values are shown without normalisation. Reagents against one gene are numbered here. Not given: the amount of reagent, the time to read-out.

The first 2 entries, to show the layout:
| target gene | reagent no. | infection score, replicate 1 | infection score, replicate 2 | cell count, replicate 1 | cell count, replicate 2 | outcome |
| --- | --- | --- | --- | --- | --- | --- |
| Cyp312a1 (Cytochrome P450 312a1) | 1 | 7.39 | 3.53 | 6403 | 6408 | inactive |
| Cyp312a1 (Cytochrome P450 312a1) | 2 | 2.76 | 4.92 | 6227 | 6283 | inactive |

The listing, from the start:
| target gene | reagent no. | infection score, replicate 1 | infection score, replicate 2 | cell count, replicate 1 | cell count, replicate 2 | outcome |
| --- | --- | --- | --- | --- | --- | --- |
| Cyp312a1 (Cytochrome P450 312a1) | 1 | 7.39 | 3.53 | 6403 | 6408 | inactive |
| Cyp312a1 (Cytochrome P450 312a1) | 2 | 2.76 | 4.92 | 6227 | 6283 | inactive |
| beat-IIIb (beaten path IIIb) | 1 | 1.28 | 6.32 | 7013 | 6279 | inactive |
| HDAC3 (Histone deacetylase 3) | 1 | 34.7 | 23.4 | 5574 | 5767 | inactive |
| spen (split ends) | 1 | 1.54 | 1.09 | 5079 | 5045 | inactive |
| CG6659 | 1 | 12.3 | 1.89 | 6250 | 7259 | inactive |
| CG31371 | 1 | 7.69 | 9.68 | 2081 | 5423 | inactive |
| ValRS (Valyl-tRNA synthetase) | 1 | 9.89 | 10.1 | 5579 | 6095 | inactive |
| CG43740 | 1 | 2.83 | 2.75 | 5805 | 6217 | inactive |
| SLIRP2 (SRA stem-loop interacting RNA binding protein 2) | 1 | 10.8 | 13.8 | 2794 | 5514 | inactive |
| SLIRP2 (SRA stem-loop interacting RNA binding protein 2) | 2 | 3.27 | 5.56 | 6294 | 6079 | inactive |
| CG17636 | 1 | 1.36 | 0.69 | 6337 | 6102 | inactive |
| Elp2 (Elongator complex protein 2) | 1 | 8.69 | 4.59 | 5659 | 6516 | inactive |
| CG9593 | 1 | 2.52 | 4.23 | 6713 | 6591 | inactive |
| Ude (Uracil-DNA degrading factor) | 1 | 5.47 | 3.61 | 6219 | 6676 | inactive |
| RhoGAP92B (Rho GTPase activating protein at 92B) | 1 | 2.13 | 5.89 | 5719 | 5569 | inactive |
| RhoGAP92B (Rho GTPase activating protein at 92B) | 2 | 11 | 9.37 | 4394 | 5787 | inactive |
| Ac13E (Adenylyl cyclase 13E) | 1 | – | 18.6 | 446 | 5523 | inactive |
| Ac13E (Adenylyl cyclase 13E) | 2 | 3.17 | 12.3 | 6536 | 6483 | inactive |
| CG14072 | 1 | 8.47 | 3.86 | 5551 | 6831 | inactive |
| Fili (Fish-lips) | 1 | 6.01 | 7.78 | 6470 | 7199 | inactive |
| Fili (Fish-lips) | 2 | 6.89 | 9.99 | 6703 | 6807 | inactive |
| Rab35 | 1 | 0.93 | 1.28 | 6331 | 6728 | inactive |
| Rab35 | 2 | 13.4 | 19.4 | 4996 | 5313 | inactive |
